Reference: patent publication US11590110B2, “Compositions and methods for reactivating latent immunodeficiency virus using a GSK-3 inhibitor” (priority 2017, dated 2023)

Test system: latent HIV-1 in blood CD4+ T cells from infected individuals on suppressive ART

O=c1sn(-c2cccc3ccccc23)c(=O)n1Cc1ccccc1 [Tideglusib, 4-benzyl-2-(naphthalen-1-yl)-1,2,4-thiadiazolidine-3,5-dione]
virus-associated HIV-1 mRNA, mean fold-change (1 μM, 48 hours, relative to untreated control): 38.32 fold | production and release of virions vs untreated control samples (blood CD4+ T cells): about 40 fold
